Test results reported in article PMC7369900 (International Journal of Molecular Sciences, 2020).

Columns and labels:
human red blood cells = assay: Hemolysis assay; conditions: selectivity index class
[1] = test system: Gram-positive and Gram-negative bacteria; assay type: cell-based; conditions: selectivity index class
Method: The antibacterial activity of TP10-NH2-based conjugates, as well as its constituents, was evaluated by microdilution assay in Mueller Hinton broth, MHB (Table 1). […] There are, however, some exceptions. […] Its activity against two other tested bacteria was somewhat lower though.
The antibacterial activity (bacteriostatic: MIC and bactericidal: MBC) of the tested compounds was determined in MHB (Mueller Hinton Broth, Sigma Aldrich, St. Louis, MO, USA) using a serial two-fold dilution method in 96-well microtiter plates according to CLSI recommendations, described in M07-A10 document. The exact conditions have been described previously. All experiments were performed in three replicates. The MIC90 and MIC50 values were defined as the concentrations of compounds tested that caused a 90% or 50% reduction of growth, respectively, comparing to the drug-free control.

Candida glabrata cells = assay: Cellular uptake of fluorescent probes (fluorescence microscopy); assay type: cell-based; conditions: time class
Candida albicans cells = assay: as above; assay type: cell-based; conditions: for Cellular Uptake Fungal C. albicans Wall: time class; for Uptake and accumulation in Candida albicans cells: fluorescent probes 40 μM, 30 min, PBS

Row | Molecule | Hemolysis Selectivity HEK 293 (human red blood cells) | Hemolysis Selectivity HL-60 (human red blood cells) | Antibacterial Selectivity HEK 293 LLC-PK1 for Gram + [1] | Cellular Uptake Fungal C. glabrata Nucleus (Candida glabrata cells) | Cellular Uptake Fungal C. albicans Wall (Candida albicans cells) | Uptake and accumulation in Candida albicans cells (Candida albicans cells)
1 | CC[C@H](C)[C@H](NC(=O)[C@H](CCCCN)NC(=O)[C@H](CCCCN)NC(=O)[C@H](C)NC(=O)[C@H](CC(C)C)NC(=O)[C@H](C)NC(=O)[C@H](C)NC(=O)[C@H](CC(C)C)NC(=O)[C@H](C)NC(=O)[C@H](CCCCN)NC(=O)[C@H](CC(C)C)NC(=O)[C@H](CC(N)=O)NC(=O)[C@@H](NC(=O)[C@H](CCCCN)NC(=O)CNC(=O)[C@H](CC(C)C)NC(=O)[C@H](CC(C)C)NC(=O)[C@H](Cc1ccc(O)cc1)NC(=O)CNC(=O)[C@H](C)NC(=O)[C@@H](N)CS)[C@@H](C)CC)C(=O)N[C@@H](CC(C)C)C(N)=O [CTP10-NH2] | ++ (++ SI > 4) | + (+ SI > 1) |  |  |  | 
2 | CC[C@H](C)[C@H](NC(=O)[C@H](CCCCN)NC(=O)[C@H](CCCCN)NC(=O)[C@H](C)NC(=O)[C@H](CC(C)C)NC(=O)[C@H](C)NC(=O)[C@H](C)NC(=O)[C@H](CC(C)C)NC(=O)[C@H](C)NC(=O)[C@H](CCCCN)NC(=O)[C@H](CC(C)C)NC(=O)[C@H](CC(N)=O)NC(=O)[C@@H](NC(=O)[C@H](CCCCN)NC(=O)CNC(=O)[C@H](CC(C)C)NC(=O)[C@H](CC(C)C)NC(=O)[C@H](Cc1ccc(O)cc1)NC(=O)CNC(=O)[C@H](C)NC(=O)CN1CCN(c2cc3c(cc2F)c(=O)c(C(=O)O)cn3C2CC2)CC1)[C@@H](C)CC)C(=O)N[C@@H](CC(C)C)C(N)=O [Compound 1, CIP-CH2CO-TP10-NH2] |  |  | + (+ SI > 1) |  |  | 
3 | CC[C@H](C)[C@H](NC(=O)[C@H](CCCCN)NC(=O)[C@H](CCCCN)NC(=O)[C@H](C)NC(=O)[C@H](CC(C)C)NC(=O)[C@H](C)NC(=O)[C@H](C)NC(=O)[C@H](CC(C)C)NC(=O)[C@H](C)NC(=O)[C@H](CCCCN)NC(=O)[C@H](CC(C)C)NC(=O)[C@H](CC(N)=O)NC(=O)[C@@H](NC(=O)[C@H](CCCCN)NC(=O)CNC(=O)[C@H](CC(C)C)NC(=O)[C@H](CC(C)C)NC(=O)[C@H](Cc1ccc(O)cc1)NC(=O)CNC(=O)[C@H](C)N)[C@@H](C)CC)C(=O)N[C@@H](CC(C)C)C(N)=O [TP10-NH2, transportan 10, reference compound] | - (- not detected within 2 h) | - (- not detected within 2 h) | ++ (++ SI > 10) | - (- not detected within 2 h) | + (+ within 1 h) | 
4 | CIP(Cf) |  |  |  |  |  | did not enter these cells
5 | CIP-CH2CO-TP10(Cf)-NH2 [Compound 7] |  |  |  | - (- not detected within 2 h) | + (+ within 1 h) | transported to and accumulated in
6 | TP10(Cf)-NH2 |  |  |  |  |  | transported to and accumulated in
